## Percent effect of library compounds

Measurements from “University of Dundee, Small-Polar-MMV Screening Library” (2021), ChEMBL document CHEMBL3988442.

Results are given as percent effect.
How 0% and 100% were set is not recorded. Most values in the screen are low, and negative values occur.
The entries come from a sample that favours strong results.
Two or more numbers in one place are separate tests of the same structure; such repeats can differ widely.
A dash means the value is not listed here; it may have been measured.

Mtb cholesterol medium: 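Growth of Mycobacterium tuberculosis over 4 days (cholesterol / DPPC medium with tyloxapol); the read-out is not stated. Compounds at 50 µM. Higher reads as more growth inhibition (inferred: compounds with an IC50 in retests scored well above the rest). About 69,000 compounds were tested under these conditions; 0.54% (about 370) showed 50% or more at least once.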
Mtb glucose medium: 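Phenotypic screen: M. tuberculosis growth, glucose 7H9 medium, 3 days; the read-out is not stated. Concentration: 50 µM. Higher reads as more growth inhibition (inferred: compounds with an IC50 in retests scored well above the rest). About 69,000 compounds were tested under these conditions; 1.1% (about 760) showed 50% or more at least once.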

structure | Mtb cholesterol medium | Mtb glucose medium
Cc1nc(CN(C)C)cc(N2CCCC(COc3ccc(F)cc3)C2)n1 (centres unmarked) | 10.96 | 36.91
CC(C)c1cc(N(C)Cc2noc(C3CCCC3)n2)n2nccc2n1 | 53.98 | 53.81
COCCNc1nnc(-c2ccc(C)nc2)s1 | -8.728 | -23.9
COc1cc(C)nc(N2CCN(C(=O)c3ccc(Cl)o3)CC2)n1 | - | 39.96
CC[C@H](C)[C@H](NC(=O)c1cccc(-n2cnnn2)c1)C(=O)OC | -9.001 | -0.3732
O=C(c1ccnn1COc1ccc(Cl)cc1)N1CCOCC1 | - | 2.363 & -4.88
COc1c(F)cc(-c2cccc3c2OC(CN)C3)cc1F (centres unmarked) | - | 44.48 & 48.66
Cc1cc(C2CCC2)nc(N(C)CCc2ccccn2)n1 | - | 54.45
CCS(=O)(=O)c1ccc(CNc2c(Cl)cccc2C#N)cc1 | - | 10.28
OCC(O)CSCc1nnc(-c2cccc(F)c2)o1 (centres unmarked) | - | -1.053
Cc1nnc2n1CCN(CCOc1ccccc1)C2 | 0.9715 | -
COc1cccc(C2CC(=O)Nc3nc(N4CCCCC4)sc32)c1OC (centres unmarked) | - | 50.93
O=S1(=O)CCC(CNc2cc(-c3ccccc3)nc3ccnn23)C1 (centres unmarked) | -17.27 | -
Clc1ccc(-c2c[nH]c([C@@H]3COCCN3)n2)cc1 | - | 0.3468 & 7.894
CNS(=O)(=O)c1ccc(CNC(=O)C2CCCO2)cc1 (centres unmarked) | -25.58 | -8.709
Cc1cccnc1CN(C)C(C(=O)O)c1ccc(-n2cccn2)cc1 (centres unmarked) | - | 82.27
CCCNS(=O)(=O)Cc1ccc(Br)cc1 | - | 16.76
CN(C)c1ccc(C(=O)N2CCCC2c2cnn(C)c2)nn1 (centres unmarked) | - | 108.4 & -15.33
CN(C)c1cc2c(nn1)CCN(C(=O)c1cc3ccccc3o1)C2 | -6.707 | -
CCOc1cc(C(=O)n2cc(C)cn2)cc(OCC)c1OCC | - | 53.32 & 7.731
Cc1nc(C)c2c(n1)CCN(Cc1ccsc1)CC2 | 15.99 & 28.71 | 3.662 & 26.6
Cc1cccc(N(CC(=O)N2CCCCC2)C(=O)C2CCCO2)c1 (centres unmarked) | - | 11.91
CC(C)n1nccc1NC(=O)NCCc1nc2ccc(F)cc2n1C | - | 111.8 & -7.874
Cc1ccc(-c2cc(CS(=O)(=O)NC3CCCNC3=O)on2)cc1 (centres unmarked) | 53.31 | -
COc1ccc(-c2nc(CCNCc3ccncc3)co2)cc1 | 11.73 & 26.96 | 30.3
CCCc1cc(=O)[nH]c(-n2nc(-c3cccs3)cc2N)n1 | 18.19 | 12.72
CCc1[nH]c2c(CNc3nc(C)cc(NC)n3)cc(C)cc2c1C | 80.48 | 84.45 & 72.51
c1ccc(Cn2ccnc2CNC2CCCOc3ccccc32)cc1 (centres unmarked) | - | 34.85
Cc1ccc(Oc2cc(F)ccc2O[C@@H]2CCC[C@@H](N)[C@H]2O)cc1 | 34.54 | 70.98
Oc1nc(N2CCCC2)nc2c1CCN(Cc1ccsc1)CC2 | 11.27 | -5.78
CN(C)c1ccc(C(=O)N2CCCC2c2cnn(C)c2)cn1 (centres unmarked) | - | -39.45
O=C(CCN1CCN(c2ccc3nncn3n2)CC1)N1CCCCC1 | - | -15.97
CC(=O)NCC1CN(c2ccc3c(Cl)ccnc3c2F)CCO1 (centres unmarked) | - | -2.33
Cc1n[nH]cc1CNCC(c1ccsc1)N(C)C (centres unmarked) | - | -3.445 & 53.05
O=C(c1ccc(O)c(Cl)c1)N1CCN(c2nccs2)CC1 | - | -7.199
O=C(c1cccs1)N1CCC2(CC1)CN(c1ccsc1)C(=O)CO2 | -6.713 & 83.76 | -
Cc1nn(C)c(C)c1CCC(=O)N1CC(c2cccnc2)C1 | -27.43 | -22.37
CCC(=O)NCC(Cc1cccc(F)c1)n1cccc1 (centres unmarked) | - | 30.68 & 7.27
COc1ccc(OC)c(-n2cnnc2CCN)c1 | - | 7.986
NC(=O)CN1CCC(C(=O)NCc2ccc3c(c2)OCCCO3)CC1 | -13.59 | -6.51
O=C(NCc1ccccn1)Nc1ccc2[nH]nnc2c1 | - | 12.08 & -4.309
COc1ccc(N2Cc3nc(=O)n(C(C)C)n3C2=O)cc1 | - | -13.18
CC(C)Cc1cc(NC(=O)c2ccccn2)n(C)n1 | - | 57.67
Cc1cc(NCCC(=O)NC2CCCCC2)nc(-c2ccncc2)n1 | - | 8.08
CCC(O)CNc1ccc(-c2nc(CC(C)C)no2)cn1 (centres unmarked) | 32.86 | 54.98 & 40.5
CCc1cc(NC(=O)c2cccc(OCC(F)(F)F)n2)[nH]n1 | - | 50.06
CC(=O)c1c(F)cccc1N1CCC(C(N)=O)CC1 | -12.57 & -6.205 | -5.258
COc1cccc(OC)c1-c1ccnc2cc(CC(=O)NC3CC3)nn12 | - | 33.22
O=C(O)C(F)(F)F.O=C(O)C(F)(F)F.c1cncc(-c2ccc3c(c2)CCC32CCN(Cc3nccs3)CC2)c1 | 19.61 | 40.75 & 47.77
c1cncc(NCCNC2CSCCSC2)c1 | - | -12.54
CC(C)c1nnc(NCc2ccsc2)o1 | 2.025 | 16.23
Cn1c(CNCC2CCCN2c2cccnn2)nc2ccccc21 (centres unmarked) | - | 26.99
Cc1cc(C(=O)NCc2csc(N(C)C)n2)c2ccc(C)c(C)c2n1 | 67.14 | 86.54
CCC(C#N)NC(=O)c1ccc(Oc2cccnc2)cc1 (centres unmarked) | 6.678 & -12.03 | -4.825
O=C(O)[C@@H]1CN(CCOCCO)C[C@H]1c1ccccc1 | - | 4.737 & -23.59
CN1CCN(C2CCN(CCOc3ccccc3F)CC2)C1=O | - | 27.57
CS(=O)(=O)N[C@@H]1CN(C(=O)c2cc3ccccc3s2)C[C@H]1O | - | 74.34
CO[C@@H]1CCN(Cc2nccs2)C[C@@H]1Cc1cccc(C)c1.O=C(O)C(F)(F)F | 22.81 | 32.61
FC(F)(F)Oc1ccc(-c2noc([C@@H]3Cc4nc[nH]c4CN3)n2)cc1 | - | 39.29 & 38.51
O=c1n(CCSCc2ccccc2F)nc2ccccn12 | - | 34.94
CCCc1nnc(N2CC[C@@](O)(C3CCOCC3)[C@H](C)C2)s1 | -34.09 | -4.658
CCn1c(SCC(N)=O)nnc1-c1csc2c1CCCC2 | -39.91 | -5.57
CO[C@@H]1CCN(c2nnc(C)s2)C[C@@H]1Cc1cccc(C)c1.O=C(O)C(F)(F)F | 38.09 | 51.3 & 34.61
CC1(C)CN(C(=O)CC2CCC2)C[C@]1(C)O | - | 50.29
O=C(NCC1CC1)N1CCN(Cc2ccc3c(c2)OCCO3)CC1 | 65.83 | 70.14
CS(=O)(=O)N1CCc2[nH]cnc2C12CCN(C(=O)c1cccnc1)CC2 | -4.15 & -11.82 | -
CN1CCN(C(=O)C2(S(C)(=O)=O)CCCC2)Cc2ccccc21 | 12.01 | -1.224 & 3.877
COC1CCN(c2ccc(F)cc2CN(C)CC(N)=O)CC1 | - | 38.68
COc1ccccc1N1CCN(Cc2nc(C)c(C)o2)CC1 | - | 15.72
Cc1nc(CN(Cc2ccncc2)C2CCN(C)CC2)cs1 | - | -7.284 & -49.67
CCC(C)Oc1ccccc1CN1Cc2ncccc2C1=O (centres unmarked) | - | -6.249
COc1c(C)cnc(CN2CCCC2c2noc(C3CC3)n2)c1C (centres unmarked) | - | -16.05
CNC(=O)C(C)CN(C)C(=O)Nc1cc(F)cc(Br)c1 (centres unmarked) | -16.87 | 12.06 & 1.783
CN(C(=O)Cc1ccn(C)c1)C1CCCN(C2Cc3ccccc3C2)C1 (centres unmarked) | - | -5.221
CO[C@H]1CCN(c2nnc(C)s2)C[C@@H]1Cc1ccccc1.O=C(O)C(F)(F)F | 38.17 | 34.59 & 46
CCNC(=O)N1CCC(n2ccc(C(F)(F)F)n2)CC1 | - | -0.5876
CCOc1ccnc(N2CCCN(c3nc(CC)ns3)CC2)n1 | - | -1.167
Cc1nc(C)n(CC2CN(c3ncccc3C#N)CCO2)n1 (centres unmarked) | - | 4.21
Cc1csc(N2CCCN(CCC(=O)NC(N)=O)CC2)n1 | - | 77.5